Results on 4 compounds are retold here after US5707620A (priority 1995, dated 1998).

The term Km denotes the concentration of substrate that gives half-maximal velocity.

For the assay, the target named is Lys-gingipain (Porphyromonas gingivalis, UniProt B2RLK2, A715G/D467N/G568E/I573V/L455V). The experiment in a line: Kinetic constants for the hydrolysis of synthetic substrates by Lys-gingipain. The class given is biochemical.
As to `CC(C)C[C@H](NC(=O)[C@H](N)C(C)C)C(=O)N[C@@H](CCCCN)C(=O)Nc1ccc([N+](=O)[O-])cc1` [HD--Val--Leu--Lys--pNa, D-Val-Leu-Lys-pNA], the Km stood at 200 µM.

As to `CC(C)[C@@H](N)C(=O)N[C@@H](Cc1ccccc1)C(=O)N[C@@H](CCCCN)C(=O)Nc1ccc([N+](=O)[O-])cc1` [HD--Val--Phe--Lys--pNa, H-D-Val-Phe-Lys-pNa], the Km was found to be 126 µM.

As for `Cc1ccc(S(=O)(=O)NCC(=O)N2CCC[C@H]2C(=O)N[C@@H](CCCCN)C(=O)Nc2ccc([N+](=O)[O-])cc2)cc1` [N-p-tosyl-Gly--Pro--Lys--pNa, N-p-tosyl-Gly-Pro-Lys-pNa], the Km came out at 50 µM.

Regarding `NCCCC[C@H](NC(=O)OCc1ccccc1)C(=O)Nc1ccc([N+](=O)[O-])cc1` [Z--L--Lys--pNa, Z-L-Lysine-p-Nitroanilide], the Km amounted to 180 µM.
